Compound potency records, mixed from different reports. Data source: NIAID ChemDB in PubChem.

Shared fields: enzyme or target tests

Conditions beyond the fields shown may differ between rows.

SMILES,target,dose,method,species,strain,read-out,changes,value
C/C(=N\NC(=S)NNC(=S)Nc1ccccc1Cl)c1ccccn1,Ribonucleotide reductase,-,-,Herpes simplex virus 1,-,IC50,-,>5 µM
Nc1nc(N)c(N=C/C=C/c2ccc([N+](=O)[O-])cc2)c(-c2ccccc2)n1,Dihydrofolate reductase,-,-,Cryptosporidium parvum,TYPE I,IC50,-,>100 µM
COc1ccc(Cl)cc1C1c2c(nc(N)[nH]c2=O)OC1[N+](=O)[O-],DHFR,-,-,Pneumocystis carinii,-,IC50,-,20 µM
CCOC(=O)c1cnn2c(-c3ccccc3)c(-c3ccc(Oc4ccccc4)cc3)cnc12,RNA-dependent RNA polymerase,-,-,Hepatitis C virus,-,IC50,-,>10 µM
O=C(O)c1ccc(N2C(=O)C(=Cc3ccc(-c4ccc(Cl)c(Cl)c4)o3)SC2=S)cc1,NS5 polymerase,-,-,Bovine viral diarrhea virus,-,IC50,-,≤1 µM
Fc1ccccc1N1CCN(c2cncc(-c3ccsc3)n2)CC1,UL97 kinase,-,-,Cytomegalovirus,-,IC50,-,<10 µM
CC(=O)c1ccc(-c2ccc(C=C3SC(=S)N(c4ccc(C(=O)O)cc4)C3=O)o2)s1,NS5 polymerase,-,-,Bovine viral diarrhea virus,-,IC50,-,≤1 µM
CS(=O)(=O)CCCN1C(=O)c2ccccc2C(CC(=O)c2ccccc2)C1=O,Protease,-,-,Rhinovirus,Serotype 14,IC50,-,22.1 µM
CSCC[C@H](NC(=O)c1cnn2c(C3CCCCC3)c(-c3ccc(F)cc3)cnc12)C(=O)O,RNA-dependent RNA polymerase,-,-,Hepatitis C virus,-,IC50,-,<1 µM
C[C@@H]1CN(c2c(F)c(N)c3c(=O)c(C(=O)O)cn(C4CC4)c3c2F)C[C@H](C)N1,DNA gyrase,-,-,Streptococcus pneumoniae,J24 (quinolone- penicillin-sensitive),IC50,-,69 µg/mL
Cc1ccc(-c2cncc(NCc3ccco3)n2)cc1C,UL97 kinase,-,-,Cytomegalovirus,-,IC50,-,<100 µM
Cc1ccc(N=Nc2c(N)nc(N)nc2N)cc1C,Dihydrofolate reductase,-,-,Cryptosporidium parvum,TYPE I,IC50,-,>1000 µM
C/C(=N\NC(=S)NNC(=S)N(C)C)c1ccccn1,Ribonucleotide reductase,-,-,Herpes simplex virus 1,-,IC50,-,>5 µM
COc1ccc(OC)c(NCc2csc3nc(N)nc(N)c23)c1,DHFR,10 µM,-,Toxoplasma gondii,-,inhibition,-,<30%
Cc1onc(-c2ccccc2Cl)c1C(=O)N[C@@H]1C(=O)N2[C@@H]1SC(C)(C)[C@@H]2C(=O)O,Beta-lactamase,-,-,Mycobacterium tuberculosis,TB3,IC50,-,1 µg/mL
CCc1cc(Nc2cc(=O)n(CC3CCN(C(=O)c4ccno4)CC3)c(=O)[nH]2)ccc1C,DNA polymerase,-,-,Staphylococcus aureus,-,IC50,-,0.09 µM
Nc1nc2occ(-c3ccc(C(=O)N[C@@H](CCC(=O)O)C(=O)O)cc3)c2c(=O)[nH]1,DHFR,-,-,Pneumocystis carinii,-,IC50,-,110 µM
COc1ccc2cc(-c3cncc(N4CCN(c5ccc(OC)c(OC)c5)CC4)n3)ccc2c1,UL97 kinase,1 µM,-,Cytomegalovirus,-,inhibition,-,<50%
O=C(Nc1nnc(NCc2ccncc2)s1)c1ccc(I)cc1,Polymerase,-,-,Human cytomegalovirus,-,IC50,-,>25 µM
CCOc1c(Cl)cc2nc(S(N)(=O)=O)sc2c1Cl,Geranylgeranyl-protein transferase I,-,-,Candida albicans,-,IC50,-,0.11 µM
CSCCCN1C(=O)Cc2ccccc2C1=O,Protease,-,-,Rhinovirus,Serotype 14,IC50,-,>200 µM
Nc1nc2c(c(=O)[nH]1)C(c1ccccc1F)C([N+](=O)[O-])O2,DHFR,-,-,Pneumocystis carinii,-,IC50,-,50 µM
O=c1c2[nH]cnc2ncn1CCNCCP(=O)(O)O,Hypoxanthine-guanine phosphoribosyltransferase,-,absorbance,Plasmodium vivax,-,IC50,-,>250 µM
Nc1nc2c(ncn2[C@H]2CC[C@@H](COP(=O)(O)OP(=O)(O)OP(=O)(O)O)O2)c(=O)[nH]1,Reverse transcriptase,-,nucleotide incorporation,HIV,-,IC50,RT-W266S,>2.5 µM
CC(C(=O)O)N1C(=O)C(=Cc2ccc(-c3cc(C(F)(F)F)ccc3Cl)o2)SC1=S,NS5 polymerase,-,-,Bovine viral diarrhea virus,-,IC50,-,≤1 µM
Nc1nc(-c2ccccc2)c(CCCNc2ccc(C(=O)NC(CCC(=O)O)C(=O)O)cc2)c(=O)[nH]1,Dihydrofolate reductase,-,-,Cryptosporidium parvum,TYPE II,IC50,-,>100 µM
COc1ccc(CNc2nnc(NC(=O)c3c(Cl)cccc3Cl)s2)cc1OC,Polymerase,-,-,Human cytomegalovirus,-,IC50,-,>25 µM
Fc1ccccc1N1CCN(c2cncc(-c3ccoc3)n2)CC1,UL97 kinase,-,-,Cytomegalovirus,-,IC50,-,<10 µM
C=C1/C=C(\C)[C@H](CC)OC(=O)[C@H](C)C(=O)C(O)(CO)C/C(OC)=C/[C@@H](C)C1,Inositol phosphorylceramide synthase,-,-,Cryptococcus neoformans,-,IC50,-,0.0038 µM
CO[C@H]1/C=C/O[C@@]2(C)Oc3c(C)c(O)c4c(=O)c(c5oc6cc(N7CCN(CC(C)C)CC7)cc(=O)c6nc5c4c3=C2O)NC(=O)/C(C)=C\C=C\[C@H](C)[C@H](O)[C@@H](C)[C@@H](O)[C@@H](C)[C@H](OC(C)=O)[C@@H]1C,DNA polymerase,10 µg/mL,-,Mycobacterium fortuitum,F-65,inhibition,-,29%
CCCCCCC1N=C(N)N=C(N)N1c1ccc(Cl)cc1,Dihydrofolate reductase,-,-,Cryptosporidium parvum,TYPE II,IC50,-,60 µM
c1ccc(Oc2ccc(-c3cnc4c(-c5nn[nH]n5)cnn4c3-c3ccccc3)cc2)cc1,RNA-dependent RNA polymerase,-,-,Hepatitis C virus,-,IC50,-,>10 µM
Nc1nc(N)c2c(CNc3cc(Cl)c(-n4cccc4)c(Cl)c3)csc2n1,DHFR,10 µM,-,Toxoplasma gondii,-,inhibition,-,<30%
COC(=O)C(CCSC)NC(=O)C1(Cc2ccccc2C)CCN(C(=O)[C@@H](N)CS)CC1,Geranylgeranyl-protein transferase I,-,-,Candida albicans,-,IC50,-,0.17 µM
O=C(O)CCN1C(=O)C(=Cc2ccc(-c3ccc(Cl)s3)o2)SC1=S,NS5 polymerase,-,-,Bovine viral diarrhea virus,-,IC50,-,≤1 µM
N[C@H]1CSSC[C@@H](C(=O)O)NC(=O)CNC(=O)[C@H](Cc2c[nH]c3ccccc23)NC(=O)[C@@H]2CCCN2C(=O)[C@H](Cc2ccccc2)NC1=O,Polymerase,-,-,Respiratory syncytial virus,-,IC50,-,>150 µM
Cc1cn([C@@H]2O[C@H](COP(=O)(O)OP(=O)(O)OP(=O)(O)O)[C@@H](O)[C@@H]2F)c(=O)nc1N,DNA polymerase,-,-,Epstein-Barr virus,-,Ki,-,0.9 µM
O=C(O)c1ccc(N2C(=O)C(=Cc3ccc(-c4ccccc4[N+](=O)[O-])o3)SC2=S)cc1,NS5 polymerase,-,-,Bovine viral diarrhea virus,-,IC50,-,≤1 µM
CC1(C)S[C@@H]2[C@H](NC(=O)Cc3ccccc3)C(=O)N2[C@H]1C(=O)O,DNA gyrase,-,-,Streptococcus pneumoniae,J24 (quinolone- penicillin-sensitive),IC50,-,>200 µg/mL
Nc1ncc(CNc2ccc(C(=O)N[C@@H](CCC(=O)O)C(=O)O)cc2)c(N)n1,Dihydrofolate reductase,-,-,Cryptosporidium parvum,TYPE I,IC50,-,0.07 µM
C/C(=N\NC(=S)NNC(=S)Nc1ccccc1C(F)(F)F)c1ccccn1,Ribonucleotide reductase,-,-,Herpes simplex virus 1,-,IC50,-,>5 µM
COc1ccc(OC)c(C2COc3nc(N)[nH]c(=O)c32)c1,DHFR,-,-,Pneumocystis carinii,-,IC50,-,30 µM
COc1ccc(C2CC(c3cc4ccccc4o3)=NN2c2ccc([N+](=O)[O-])cc2)cc1,Geranylgeranyl-protein transferase I,-,-,Candida albicans,-,IC50,-,0.05 µM
CC[C@@H](NC(=O)[C@@H](NC(=O)[C@@H](CC(=O)[C@@H](NC(=O)NC1[C@H](C)CCC[C@@H]1C)C(C)(C)C)CC(=O)C(C)(C)C)C1(C(=O)O)CCCC1)C(C)(C)C,Ribonucleotide reductase,-,radioligand binding / binding,Herpes simplex virus 2,-,IC50,-,<0.001 µM
CC(C)(C#Cc1ccc(NC(=O)CSc2nnnn2-c2ccc(C(C)(C)C)cc2Cl)c(Cl)c1)CO,Reverse transcriptase,-,PicoGreen / fluorescence,HIV-1,-,IC50,RT-K103 Y181C,<1 µM
Fc1ccc(N2CCN(c3cncc(-c4cccc5ccccc45)n3)CC2)c(F)c1,UL97 kinase,-,-,Cytomegalovirus,-,IC50,-,<100 µM
N#CC[C@H](O)[C@H](O)[C@@H]1OC(C(=O)O)=C[C@H](O)[C@H]1NC(=O)O,Neuraminidase,-,-,Influenza A virus,-,Ki,-,3 µM
O=C(O)[C@H]1/C(=C/CO)O[C@@H]2CC(=O)N21,Beta-lactamase,-,-,Mycobacterium tuberculosis,TB2,IC50,-,0.5 µg/mL
CC(C)CCn1c(Sc2ccc(C#N)c([N+](=O)[O-])c2)nnc1-c1ccc(Cl)cc1,Thioredoxin reductase,-,-,Plasmodium vivax,-,IC50,-,4.6 µM
CN(C)CCOc1ccccc1/C=N\N1CCN(C2Cc3ccccc3Sc3ccc(Cl)cc32)CC1,Geranylgeranyl-protein transferase I,-,-,Candida albicans,-,IC50,-,0.17 µM
CC(C)c1cc(C(C)C)c(C(=O)Nc2nnc(NCCc3ccc(S(N)(=O)=O)cc3)s2)c(C(C)C)c1,Polymerase,-,-,Human cytomegalovirus,-,IC50,-,<25 µM
CCCCN1C(=O)c2ccccc2C(C(C)=O)C1=O,Protease,-,-,Rhinovirus,Serotype 2,IC50,-,>200 µM
O=C(O)c1cc2nc(-c3ccc(-c4ccc(F)cc4F)cc3)c(C3CCCCC3)c(=O)n2[nH]1,RNA-dependent RNA polymerase,-,-,Hepatitis C virus,-,IC50,-,1–10 µM
O=C(Nc1nnc(NCc2ccc(F)cc2)s1)c1cccc([N+](=O)[O-])c1,Polymerase,-,-,Human cytomegalovirus,-,IC50,-,>25 µM
Cc1cc2c([nH]c3ccccc32)c2c1OC(C)(C)C=C2,Early antigen (EA) induced,-,antigen,Epstein-Barr virus,-,IC50,-,6 µg/mL
N#Cc1ccc(C(=O)Nc2nnc(NCCc3ccccc3)s2)cc1,Polymerase,-,-,Human cytomegalovirus,-,IC50,-,>25 µM
Cc1c(-c2ccc(-c3ccc(OC(C)(C)C)cc3)nc2)[nH]c2cc(F)ccc2c1=O,Cytochrome bc1,-,-,Plasmodium falciparum,cytochrome bc1,IC50,-,0.0268 µM
CCc1cc(Nc2cc(=O)n(CCCO)c(=O)[nH]2)ccc1C,DNA polymerase,-,-,Staphylococcus aureus,-,IC50,-,0.3 µM
CC[C@@H](NC(=O)[C@@H](NC(=O)[C@H](CC(=O)N1CCCC1)NC(=O)[C@@H](NC(=O)NC1[C@H](C)CCC[C@@H]1C)C(C)(C)C)C1(C(=O)O)CCCC1)C(C)(C)C,Ribonucleotide reductase,-,radioligand binding / binding,Herpes simplex virus 1,-,IC50,-,<0.001 µM
CCCC(=O)C1C(=O)N(CC(=O)N2CCCC2C(=O)O)C(=O)c2ccccc21,Protease,-,-,Rhinovirus,Serotype 14,IC50,-,56.9 µM
CCCC(CCC)NC(=O)N[C@H](C(=O)C[C@@H](CC(=O)C(C)(C)C)C(=O)N[C@H](C(=O)N[C@H](CC)C(C)(C)C)C1(C(=O)O)CCCC1)C(C)(C)C,Ribonucleotide reductase,-,radioligand binding / binding,Herpes simplex virus 2,-,IC50,-,<0.001 µM
COc1ccc(-c2cncc(N3CCN(c4cccc(C(F)(F)F)c4)CC3)n2)cc1OC,UL97 kinase,10 µM,-,Cytomegalovirus,-,inhibition,-,>15%
O=C(O)c1cc2nccc(-c3ccc(-c4ccccc4)cc3)n2n1,RNA-dependent RNA polymerase,-,-,Hepatitis C virus,-,IC50,-,>10 µM
C/C(=N\NC(=S)NNC(=S)Nc1ccccc1Br)c1ccccn1,Ribonucleotide reductase,-,-,Herpes simplex virus 1,-,IC50,-,>5 µM
c1ccc(-c2cncc(N3CCN(c4ccncc4)CC3)n2)cc1,UL97 kinase,-,-,Cytomegalovirus,-,IC50,-,<10 µM
O=C(NC(CO)C(=O)O)c1cc2nc(-c3ccc(OCc4ccccc4)cc3)c(C3CCCCC3)c(=O)n2[nH]1,RNA-dependent RNA polymerase,-,-,Hepatitis C virus,-,IC50,-,1–10 µM
N#Cc1ccc(C(=O)Nc2nnc(NCCc3ccc(S(N)(=O)=O)cc3)s2)cc1,Polymerase,-,-,Human cytomegalovirus,-,IC50,-,>25 µM

a–b is a range or a potency band. Percent inhibition refers to the dose given; in toxicity tests it is the harm to the cells. Blank or dashed fields: not listed here. ICn is the concentration giving n% inhibition.